Measurements: IntAct's records for PubMed 35512704

B1: RAC-alpha serine/threonine-protein kinase (Homo sapiens), P31749 (parent)
chain: MSDVAIVKEGWLHKRGEYIKTWRPRYFLLKNDGTFIGYKERPQDVDQREAPLNNFSVAQCQLMKTERPRPNTFIIRCLQWTTVIERTFHVETPEEREEWTTAIQTVADGLKKQEEEEMDFRSGSPSDNSGAEEMEVSLAKPKHRVTMNEFEYLKLLGKGTFGKVILVKEKATGRYYAMKILKKEVIVAKDEVAHTLTENRVLQNSRHPFLTALKYSFQTHDRLCFVMEYANGGELFFHLSRERVFSEDRARFYGAEIVSALDYLHSEKNVVYRDLKLENLMLDKDGHIKITDFGLCKEGIKDGATMKTFCGTPEYLAPEVLEDNDYGRAVDWWGLGVVMYEMMCGRLPFYNQDHEKLFELILMEEIRFPRTLGPEAKSLLSGLLKKDPKQRLGGGSEDAKEIMQHRFFAGIVWQHVYEKKLSPPFKPQVTSETDTRYFDEEFTAQMITITPPDQDDSMECVDSERRPHFPQFSYSASGTA
partner: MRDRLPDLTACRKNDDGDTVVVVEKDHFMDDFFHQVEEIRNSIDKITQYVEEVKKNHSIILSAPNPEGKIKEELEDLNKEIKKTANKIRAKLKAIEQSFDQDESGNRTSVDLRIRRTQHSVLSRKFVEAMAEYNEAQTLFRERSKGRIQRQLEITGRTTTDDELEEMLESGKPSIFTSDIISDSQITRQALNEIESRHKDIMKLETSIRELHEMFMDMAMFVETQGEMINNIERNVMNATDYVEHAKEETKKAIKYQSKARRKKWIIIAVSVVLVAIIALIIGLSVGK

Variants of: B1
Settings: with stx2_human STX2, P32856
MSDVAIVKEGWLHKRGKYIKTWRPRYFLLKNDGTFIGYKERPQDVDQREAPLNNFSVAQCQLMKTERPRPNTFIIRCLQWTTVIERTFHVETPEEREEWTTAIQTVADGLKKQEEEEMDFRSGSPSDNSGAEEMEVSLAKPKHRVTMNEFEYLKLLGKGTFGKVILVKEKATGRYYAMKILKKEVIVAKDEVAHTLTENRVLQNSRHPFLTALKYSFQTHDRLCFVMEYANGGELFFHLSRERVFSEDRARFYGAEIVSALDYLHSEKNVVYRDLKLENLMLDKDGHIKITDFGLCKEGIKDGATMKTFCGTPEYLAPEVLEDNDYGRAVDWWGLGVVMYEMMCGRLPFYNQDHEKLFELILMEEIRFPRTLGPEAKSLLSGLLKKDPKQRLGGGSEDAKEIMQHRFFAGIVWQHVYEKKLSPPFKPQVTSETDTRYFDEEFTAQMITITPPDQDDSMECVDSERRPHFPQFSYSASGTA [E17K] was tested, and the “effect of a mutation on the interaction” value was “with no effect”.
